Results on two sequences are retold here after publication PMC6610081.

The exact form of at least one protein or probe is not confirmed. Where a protein sequence is shown, tags need not be part of it.

Series [1] deals with T1, AlgR (Pseudomonas aeruginosa PAO1) (UniProt P26275).
T1 sequence (looked up, limits assumed): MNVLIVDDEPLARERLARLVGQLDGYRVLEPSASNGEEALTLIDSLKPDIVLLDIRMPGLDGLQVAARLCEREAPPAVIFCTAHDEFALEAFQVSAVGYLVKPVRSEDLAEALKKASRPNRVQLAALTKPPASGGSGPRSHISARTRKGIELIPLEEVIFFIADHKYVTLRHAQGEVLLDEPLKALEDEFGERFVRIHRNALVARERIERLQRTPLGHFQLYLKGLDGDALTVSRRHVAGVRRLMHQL
Briefly: EMSA. The conditions noted are these: EMSA: 40 ng PCR probe in 20 ul, 10 mM Tris-HCl pH 7.4, 50 mM KCl, 5 mM MgCl2, 10% glycerol, room temperature 20 min, 6% PAGE; recombinant protein; probe letters rebuilt from the primers and the genome.

Series [2] concerns the target T2, ExsA (Pseudomonas aeruginosa PAO1) (UniProt P26993).
T2 sequence (looked up, limits assumed): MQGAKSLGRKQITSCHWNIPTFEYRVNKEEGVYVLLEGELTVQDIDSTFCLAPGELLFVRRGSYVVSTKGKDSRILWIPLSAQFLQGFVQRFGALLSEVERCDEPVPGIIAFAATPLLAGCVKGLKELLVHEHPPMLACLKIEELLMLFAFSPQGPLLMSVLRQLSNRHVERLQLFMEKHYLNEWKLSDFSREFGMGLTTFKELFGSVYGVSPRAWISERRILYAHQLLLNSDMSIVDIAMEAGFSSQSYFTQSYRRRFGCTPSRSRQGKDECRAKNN
The experiment in a line: EMSA. The conditions noted are these: EMSA: 40 ng PCR probe in 20 ul, 10 mM Tris-HCl pH 7.4, 50 mM KCl, 5 mM MgCl2, 10% glycerol, room temperature 20 min, 6% PAGE; recombinant protein; protein details: His (pMCSG19); probe letters rebuilt from the primers and the genome. (In general: Mobility shift assays separate free from complexed probe on a gel.)

“GCCGGGCTACAACCCGGACAGCGCCGTGCAGGTGCTCGGCGCCGGAGCCCTCGGCGAACAGGCGCGCAGCCAATTGACCGATGAAGAGCGCGGCAACCTGATCCTGTAAGGCACCGCCGCGGAGGCACGATACCCGCCAGGCCCTCCCCACGGAGGGCCTTTTTTTCGGCGAACTTCCGAGGTGCTGGTCGATTCTCGGGTGAATGCCCGTTCGTCCCCGCCGGCGGCGCGCGAACGGCCGGTCGCATGAAGTTTTCATGACAAAAGTTCGGTGGTGCGGCGGGGTTGCCGTCAAACAGGTGTGAATGAGGAAAACGGAATTCAGTGGTGAAAGGCAGGGACGGGAACGAAAGGAATCGGCCATTTCCCGGTTGCGCTGACCGGTTGCTGGAAATGAGCGTGTCGTTCGAGAAAGACGCGTTCCGCTCTGAAACAAGAGAACAGTATCCGCTAACGGCCGTGGTCACTCCGGTGAATACGGCGAAGGACGGTGAGTATTG (double strand) [phdA promoter]”: the binding result in series [1] is recorded as “binds”. As for “GGCGGCACAATATTGACCTGGATCAATCGCCCGGACGGGCTTTTTCGGCCAGGTGCATGACACTGACCCAGGTCAAGTTTCGCAGGAGGGAGAATGCGGTCGGACGCCGCAGATAACCGGGAAAAACCTGCCCGATCGCCGCACGTTGCCCGCAGGAATGCGCCGCCGGCGAACGCGGCGGCGGAGGCTTCAGCGCTTCTTCGGCTTGCCTTTCGGCTTCTTCCGCGGCTTGCCCAGCGGCAACACCTGTTCGAAGGCCTTGCGGACCTCCTGCAGGCGCTTCTCGTGCACGTCGTGGATGCGCTTGTCGCGCTCGGCGCTGAGGTCGATCACCTTGTCGTCGTCGTTCATGGCTGGGGGTACACCAGGCGGAAGGTCAGGTTCAAACG (double strand) [phrS promoter]”, the binding result in series [2] was “binds”.
